Measurements reported in PubChem BioAssay AID1259414 (Drosophila RNAi Screening Center, 2018).

Screen: 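Host factors increasing or decreasing Wolbachia levels in cultured fly cells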 (primary screen)
System: Drosophila JW18 cells infected with Wolbachia
Reagent: long dsRNA against Drosophila genes, 0.25 µg dsRNA per well of a 384-well plate
Time to read-out: 5 days
Conditions: cells persistently infected with Wolbachia before knock-down; no added drug
Measured: 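Imaged fluorescence in situ signal for Wolbachia 23S rRNA per DAPI-counted host cell, given as a robust z-score within each plate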
Scale: Wolbachia per cell robust z: higher = more Wolbachia per host cell than the plate typical
Rule for the call: 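Hit when robust z is 1.5 or more, or -1.5 or less, in at least two of three replicates; excludes dsRNAs with several or no targets, genes not expressed in JW18 and well A1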
The deposit covers about 24,000 reagents; this is a random part of those that have a named target and a result. Over the whole deposit, about 1,210 (5%) were called active. 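Inactive calls also include excluded dsRNAs with several or no targets, genes unexpressed in JW18, and well A1, regardless of score.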 Names joined by + are all predicted targets of the reagent. No sequences are given here.

Gene,dsRNA,"Wolbachia per cell robust z, rep 1","Wolbachia per cell robust z, rep 2","Wolbachia per cell robust z, rep 3",call
CkIIbeta2,DRSC07361,-3.7,-0.194,-0.0423,inactive
CG7120,DRSC10773,0.347,0.751,1.58,inactive
Polr1B,DRSC00780,0.452,-0.648,-0.0478,inactive
THG,DRSC01896,1.64,0.579,-0.0161,inactive
HDAC11,DRSC14280,-1.1,-0.125,-1.72,inactive
HDAC11,DRSC26842,0.558,0.315,0.509,inactive
CG14443,DRSC17936,0.314,-0.6,-1.46,inactive
CG14410,DRSC19596,0.102,-3.34,-3.82,active
CG1971,DRSC15406,0.367,0.374,0.655,inactive
CG1971,DRSC28390,0.665,-0.188,-0.475,inactive
CG10222,DRSC09714,0.724,-2.05,0.074,inactive
CG10222,DRSC28067,-0.3,0.211,1.45,inactive
Nepl7,DRSC02495,0.856,0.467,1.01,inactive
Nepl7,DRSC27685,0.964,0.295,0.0897,inactive
CG43066,DRSC06927,0.186,0.128,-0.136,inactive
CG43066,DRSC26570,0.387,-0.929,-1.87,inactive
CG13833,DRSC14683,-0.803,0.254,-5.79,inactive
CG17217,DRSC02592,1.27,0.794,0.668,inactive
gnu,DRSC10497,-0.207,-0.559,0.398,inactive
CG17821,DRSC06696,-0.703,-0.109,-1.84,inactive
Dlip2,DRSC12346,1.31,0.777,1.21,inactive
CG5194,DRSC10492,0.212,-0.99,-0.261,inactive
Hil,DRSC05989,-0.423,-0.931,-0.389,inactive
Hil,DRSC06395,0.0228,-0.832,0.181,inactive
Pitslre,DRSC11874,1.06,2.28,1.64,active
Pitslre,DRSC23346,-0.818,-0.258,-1.49,inactive
dpy,DRSC00233,-0.533,-1.21,-0.771,inactive
dpy,DRSC00234,-1.35,-1.59,-0.911,inactive
dpy,DRSC00472,-1.24,-0.526,0.417,inactive
CG1824,DRSC19796,0.237,-0.00815,-0.0774,inactive
Cluap1,DRSC20637,-0.000471,0.284,1.57,inactive
Cluap1,DRSC23735,-0.949,-1.32,-0.975,inactive
Moca-cyp,DRSC15364,-1.93,-0.836,-0.966,inactive
Moca-cyp,DRSC25515,-0.413,-0.496,-1.94,inactive
Rfx,DRSC16820,0.143,-1.26,0.315,inactive
CG10713,DRSC09786,-1.56,0.953,0.376,inactive
CG10713,DRSC24532,0.253,-0.12,-0.985,inactive
Mst98Ca,DRSC16749,-0.645,-1.46,0.101,inactive
Or19a + Or19b,DRSC22604,0.699,0.58,0.805,inactive
CG11619,DRSC09849,-0.805,-0.503,1.52,inactive
CG4502,DRSC23237,0.422,0.143,0.0968,inactive
Dmtn,DRSC12513,-1.06,0.11,-0.672,inactive
Dmtn,DRSC28385,-0.795,-0.912,-1.56,inactive
Polr3K + Tcs1,DRSC26790,-0.0389,-1.3,0.0608,inactive

Active calls (from the list above):
Gene,dsRNA,"Wolbachia per cell robust z, rep 1","Wolbachia per cell robust z, rep 2","Wolbachia per cell robust z, rep 3",call
CG14410,DRSC19596,0.102,-3.34,-3.82,active
Pitslre,DRSC11874,1.06,2.28,1.64,active

Continued.
Gene,dsRNA,"Wolbachia per cell robust z, rep 1","Wolbachia per cell robust z, rep 2","Wolbachia per cell robust z, rep 3",call
Gr59f,DRSC04499,-0.549,0.146,0.144,inactive
Gr59f,DRSC27044,-0.329,0.0206,2.46,inactive
Rox8,DRSC16829,0.363,-1.97,0.3,inactive
Rox8,DRSC29536,0.254,0.491,-0.0726,inactive
CG13427,DRSC06389,0.392,0.648,1.07,inactive
CG11768 + Nasp + CG34135,DRSC23219,0.055,0.0291,-0.366,inactive
cpx,DRSC11999,-0.718,-0.445,0.574,inactive
Sgt,DRSC02812,1.17,0.699,0.114,inactive
Sgt,DRSC25360,-13.1,-1.54,-0.773,active
Hmgcr,DRSC16704,1.83,1.37,2.84,active
Hmgcr,DRSC39105,0.428,0.147,-0.243,inactive
CG7264,DRSC10793,0.000715,0.767,0.387,inactive
CG7264,DRSC26046,0.842,0.872,0.0549,inactive
CG34056,DRSC08374,-2.65,-2.09,-0.543,active
CG34056,DRSC41481,-0.925,-0.999,-0.964,inactive
CG13309,DRSC09980,0.722,0.102,0.986,inactive
Sans,DRSC06357,-0.317,-0.00562,0.879,inactive
Sans,DRSC27928,0.334,1.2,-1.06,inactive
Cralbp,DRSC41308,0.682,0.821,0.493,inactive
mfrn,DRSC15687,1.53,0.639,-0.285,inactive
CG7694,DRSC16288,-0.0583,-0.13,0.0344,inactive
CG34238,DRSC38652,-1.85,-1.28,-0.582,inactive
CG1542,DRSC15035,2.25,1.48,1.63,active
CG1542,DRSC28631,-1.45,-0.263,1.27,inactive
Lsm11,DRSC06238,0.0572,-0.162,0.354,inactive
GstT2,DRSC06244,0.37,-1.12,-2.05,inactive
CG10431,DRSC02055,-0.441,0.683,0.352,inactive
Bili + CR41504,DRSC38662,0.132,-0.000668,0.32,inactive
GlyT,DRSC04512,-0.323,-0.504,-0.549,inactive
GlyT,DRSC26130,-0.427,-2.32,-1.85,inactive
hwt,DRSC19386,0.0358,-1.04,-0.216,inactive
hwt,DRSC19695,0.46,0.543,-2.12,inactive
hwt,DRSC23728,-0.875,0.312,-14.3,inactive
hwt,DRSC25353,-3.88,-0.956,-1.19,inactive
hwt,DRSC29662,0.251,-1.62,0.375,inactive
CG31869,DRSC02582,-0.168,-0.5,0.762,inactive
CG31869,DRSC02674,0.872,-0.0603,-6.28,inactive
CG12782,DRSC04127,-0.0016,0.114,0.023,inactive
CG13558,DRSC04196,-0.749,0.473,-5.96,inactive
CG13558,DRSC27617,0.318,-0.483,0.122,inactive
Tango11,DRSC03890,-0.671,-0.508,-1.93,inactive
Tango11,DRSC03892,-1.32,-0.832,-2.55,inactive
mi,DRSC04498,0.893,1.65,0.0502,inactive
mi,DRSC29425,-0.164,0.524,-4.45,inactive
